PubChem BioAssay AID1224833 – University of Georgia, 2016

Aim: 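Host factors restraining rotavirus as candidate antiviral genes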 (primary screen)
Cell system: monkey MA104 kidney cells
Knock-down reagent: siRNA pool against human genes, 50 nM
Time to read-out: 48 h knock-down before infection; read 24 h after infection
Challenge: infection with rotavirus strain RV3 two days after transfection; infectious dose for this stage not given
Measured: 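z-score of rotavirus antigen signal per well, from a fluorescent immunoassay, relative to non-targeting control wells on the same plate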
Direction: z-score vs non-targeting control: higher = more rotavirus replication than with non-targeting control
Active means: In these data the active calls have z-score vs non-targeting control at about -1 or lower, or at about 1 or higher
Meaning of the calls: active = z-score beyond 1 either way; inactive = z-score within 1 of zero
In all, the deposit lists about 12,000 reagents; below is a random part of them. In the full data, about 5,600 (46%) were called active. 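Active calls cover z-scores past 1 in both directions, so they include lowered as well as raised rotavirus replication.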 Unmarked entries are inactive. Reagent sequences are not shown.

| gene knocked down | z-score vs non-targeting control |
| --- | --- |
| ARNT (aryl hydrocarbon receptor nuclear translocator) | -0.124 |
| LYPD8 (LY6/PLAUR domain containing 8) | -1.28 (active) |
| COX16 (cytochrome c oxidase assembly factor COX16) | 0.95 |
| BAG1 (BAG cochaperone 1) | 1.5 (active) |
| HAL (histidine ammonia-lyase) | 2.31 (active) |
| ZC4H2 (zinc finger C4H2-type containing) | -0.512 |
| CMIP (c-Maf inducing protein) | -1.29 (active) |
| CDA (cytidine deaminase) | -2.89 (active) |
| B3GNT6 | -0.745 |
| COL27A1 (collagen type XXVII alpha 1 chain) | 0.641 |
| PSAT1 (phosphoserine aminotransferase 1) | -3.18 (active) |
| BRAT1 (BRCA1 associated ATM activator 1) | -1.96 (active) |
| IL31 (interleukin 31) | -3.28 (active) |
| CLEC4G (C-type lectin domain family 4 member G) | -0.716 |
| TBXAS1 (thromboxane A synthase 1) | -0.547 |
| SYNE1 (spectrin repeat containing nuclear envelope protein 1) | -0.162 |
| RDX (radixin) | -0.513 |
| CHST7 (carbohydrate sulfotransferase 7) | -2.17 (active) |
| DPH1 (diphthamide biosynthesis 1) | 0.917 |
| EIF4G2 (eukaryotic translation initiation factor 4 gamma 2) | -1.1 (active) |
| PARVA (parvin alpha) | 0.921 |
| DHX30 (DExH-box helicase 30) | -1.12 (active) |
| BEST4 (bestrophin 4) | 0.643 |
| DIAPH2 (diaphanous related formin 2) | -1.27 (active) |
| NDUFA10 (NADH:ubiquinone oxidoreductase subunit A10) | -1.62 (active) |
| PLEKHS1 (pleckstrin homology domain containing S1) | -0.0768 |
| UAP1 (UDP-N-acetylglucosamine pyrophosphorylase 1) | -0.559 |
| CHD9 (chromodomain helicase DNA binding protein 9) | -0.627 |
| NCOA7 (nuclear receptor coactivator 7) | 1.01 (active) |
| C20orf96 (chromosome 20 open reading frame 96) | -0.309 |
| CD177 (CD177 molecule) | 0.828 |
| RASGRP2 (RAS guanyl releasing protein 2) | 0.96 |
| LPA (lipoprotein(a)) | -0.543 |
| GRM4 (glutamate metabotropic receptor 4) | -0.684 |
| ZNF674 (zinc finger protein 674) | -2.49 (active) |
| SEC24A (SEC24 homolog A, COPII component) | -1.32 (active) |
| TRAPPC9 (trafficking protein particle complex subunit 9) | -0.96 |
| TOP1MT (DNA topoisomerase I mitochondrial) | 2.09 (active) |
| EVL (Enah/Vasp-like) | -0.596 |
| SNTG2 (syntrophin gamma 2) | -2.88 (active) |
| HRG (histidine rich glycoprotein) | -0.128 |
| DHRS7B (dehydrogenase/reductase 7B) | -1.64 (active) |
| AREG (amphiregulin) | -0.58 |
| DLAT (dihydrolipoamide S-acetyltransferase) | 0.685 |
| ZCCHC8 (zinc finger CCHC-type containing 8) | 0.457 |
| ZKSCAN7 (zinc finger with KRAB and SCAN domains 7) | 0.25 |
| PCIF1 (phosphorylated CTD interacting factor 1) | -1.46 (active) |
| BTBD7 (BTB domain containing 7) | 0.0873 |
| SULT4A1 (sulfotransferase family 4A member 1) | -0.504 |
| NPIPB15 (nuclear pore complex interacting protein family member B15) | 0.658 |
| OMP (olfactory marker protein) | -0.0853 |
| S100G (S100 calcium binding protein G) | 0.618 |
| PCDHB11 (protocadherin beta 11) | -1.52 (active) |
| ERCC3 (ERCC excision repair 3, TFIIH core complex helicase subunit) | 1.07 (active) |
| RPRD1A (regulation of nuclear pre-mRNA domain containing 1A) | -1.58 (active) |
| HMGN4 (high mobility group nucleosomal binding domain 4) | 0.303 |
| SMN2 (survival of motor neuron 2, centromeric) | -1.2 (active) |
| LRIT1 (leucine rich repeat, Ig-like and transmembrane domains 1) | -0.2 |
| PSMD12 (proteasome 26S subunit, non-ATPase 12) | 0.585 |
| IL1R2 (interleukin 1 receptor type 2) | -0.771 |
| CRLF3 (cytokine receptor like factor 3) | 0.865 |
| ODR4 (odr-4 GPCR localization factor homolog) | -1.45 (active) |
| SNAPC4 (small nuclear RNA activating complex polypeptide 4) | -0.474 |
| MGA (MAX dimerization protein MGA) | -0.7 |
| SVIL (supervillin) | -0.982 |
| GLMP (glycosylated lysosomal membrane protein) | 1.28 (active) |
| ZNF84 (zinc finger protein 84) | -0.654 |
| AMY2B (amylase alpha 2B) | -2.38 (active) |
| TAF7 (TATA-box binding protein associated factor 7) | -1.65 (active) |
| C4B (complement C4B (Chido/Rodgers blood group)) | -0.29 |

Next part (3 carried over from the part before).
| gene knocked down | z-score vs non-targeting control |
| --- | --- |
| AMY2B (amylase alpha 2B) | -2.38 (active) |
| TAF7 (TATA-box binding protein associated factor 7) | -1.65 (active) |
| C4B (complement C4B (Chido/Rodgers blood group)) | -0.29 |
| OBP2B (odorant binding protein 2B) | -1.87 (active) |
| C11orf68 (chromosome 11 open reading frame 68) | 0.562 |
| MUC7 (mucin 7, secreted) | -0.146 |
| NIPSNAP1 (nipsnap homolog 1) | 1.46 (active) |
| TAS2R7 (taste 2 receptor member 7) | -0.242 |
| DPT (dermatopontin) | 0.474 |
| SNRPN (small nuclear ribonucleoprotein polypeptide N) | -3.05 (active) |
| WNT9A (Wnt family member 9A) | -1.86 (active) |
| MBNL1 (muscleblind like splicing regulator 1) | -0.0926 |
| CRIP2 (cysteine rich protein 2) | 0.808 |
| ZNF222 (zinc finger protein 222) | -1.54 (active) |
| GC (GC vitamin D binding protein) | -2.06 (active) |
| PCDHB7 (protocadherin beta 7) | -0.846 |
| DLGAP2 (DLG associated protein 2) | -1.04 (active) |
| SNX11 (sorting nexin 11) | 0.565 |
| SCGB1D2 (secretoglobin family 1D member 2) | 0.52 |
| AAMP (angio associated migratory cell protein) | 0.505 |
| MT3 (metallothionein 3) | 0.376 |
| E2F2 (E2F transcription factor 2) | -0.832 |
| KIAA0319 | 0.453 |
| CCL4 (C-C motif chemokine ligand 4) | -1.73 (active) |
| CCDC51 (coiled-coil domain containing 51) | 1.92 (active) |
| MLST8 (MTOR associated protein MLST8) | -0.189 |
| RECQL (RecQ like helicase) | -1.16 (active) |
| PAN3 (poly(A) specific ribonuclease subunit PAN3) | 0.676 |
| HABP4 (hyaluronan binding protein 4) | 0.642 |
| SLC4A3 | 1.59 (active) |
| FRAS1 (Fraser extracellular matrix complex subunit 1) | -0.721 |
| HYCC1 (hyccin PI4KA lipid kinase complex subunit 1) | -1.47 (active) |
| HAT1 (histone acetyltransferase 1) | -1.32 (active) |
| NXT1 (nuclear transport factor 2 like export factor 1) | -1.34 (active) |
| SDR39U1 (short chain dehydrogenase/reductase family 39U member 1) | -2.08 (active) |
| SNX4 (sorting nexin 4) | -1.61 (active) |
| CFHR3 (complement factor H related 3) | -1.48 (active) |
| XAF1 (XIAP associated factor 1) | 0.15 |
| FDPS (farnesyl diphosphate synthase) | -1.38 (active) |
| TTC7B (tetratricopeptide repeat domain 7B) | -1.9 (active) |
| PPP1R11 (protein phosphatase 1 regulatory inhibitor subunit 11) | -1.7 (active) |
| IL23A (interleukin 23 subunit alpha) | 0.159 |
| DGAT2 (diacylglycerol O-acyltransferase 2) | 2.74 (active) |
